Anti-infective test results gathered from many reports (values: NIAID ChemDB through PubChem).

Shared fields: whole-cell or culture tests; agent: HIV-1

Neighbouring rows are from separate reports. ECn is the concentration giving n% inhibition of infection, replication or growth. An empty or dashed field is not shown.

{"smiles": "Cc1cn([C@H]2C[C@H](N=[N+]=[N-])[C@@H](CO)O2)c(=O)[nH]c1=O", "method": "MTT", "read-out": "EC50", "cells": "MT-4", "strain or isolate": "IIIB", "value": "0.007 µM"}
{"smiles": "Nc1nc(NC2CC2)c2ncn(C3C=C[C@@H](CO)C3)c2n1", "read-out": "EC50", "cells": "CEM", "strain or isolate": "HE", "value": "5.9 µM"}
{"smiles": "Fc1cccc(C2SCc3nc4ccccc4n32)c1", "method": "cytopathic effect", "read-out": "EC50", "cells": "MT-4", "value": "2.884 µM"}
{"smiles": "CC(C)C(C)/C=C/[C@@H](C)[C@H]1CCC2C3C[C@@H](O)[C@@]4(O)C[C@@H](O)CC[C@]4(C)C3CC[C@@]21C", "method": "luciferase", "read-out": "EC50", "cells": "SupT1", "setting": "pseudotyped", "value": "9.3 µM"}
{"smiles": "Nc1ccn([C@H]2CC[C@@H](CO)O2)c(=O)n1", "method": "plaque count", "read-out": "EC50", "changes": "RT-D67N K70R T215F K219Q", "strain or isolate": "HIVRTMC (RT D67N K70R T215F K219Q)", "value": "0.14 µM"}
{"smiles": "Nc1ccn([C@H]2CC[C@@H](CO)O2)c(=O)n1", "method": "MTT", "read-out": "EC50", "cells": "MT-4", "strain or isolate": "IIIB", "value": "0.126 µg/mL"}
{"smiles": "Cc1ccc(-c2ccc3c(c2)C=C(C(=O)Nc2ccc(C[N+](C)(C)C4CCOCC4)cc2)CCC3)cc1", "method": "p24 / ELISA", "read-out": "EC50", "cells": "MT-2", "value": "0.0236 µM"}
{"smiles": "CC(C)=CCN1Cc2cc(Cl)cc3[nH]c(=S)n(c23)C[C@@H]1C", "read-out": "EC50", "cells": "MT-4", "changes": "RT-D67N K70R T215Y K219Q K103N", "value": "<3 µM"}
{"smiles": "Cc1cn([C@@H]2O[C@H](CO[Si](C)(C)C(C)(C)C)[C@@]3(OS(=O)(=O)C=C3N)[C@H]2O[Si](C)(C)C(C)(C)C)c(=O)[nH]c1=O", "method": "syncytia", "read-out": "EC50", "cells": "CEM", "strain or isolate": "IIIB", "value": "0.05 µM"}
{"smiles": "N=C1Sc2cc(-c3cc4ccccc4o3)ccc2C2=NCCCN12", "method": "MTT", "read-out": "EC50", "cells": "MT-4", "strain or isolate": "IIIB", "value": "1.4 µM"}
{"smiles": "COc1ccc(Cc2ccccc2)cc1C(=O)CC(=O)C(=O)O", "method": "p24", "read-out": "EC50", "cells": "MT-4", "strain or isolate": "IIIB", "value": "<0.3 µM"}
{"smiles": "Cc1cc(C)c(Oc2ncc([N+](=O)[O-])c(Nc3ccc(C#N)cc3)n2)c(C)c1", "method": "MTT", "read-out": "EC50", "cells": "MT-4", "strain or isolate": "IIIB", "value": "0.042 µM"}
{"smiles": "CC(C)[C@@H](C)/C=C/[C@@H](C)[C@H]1CCC2C3=CC(=O)[C@@]4(O)C[C@@H](O)CC[C@]4(C)[C@@]3(O)CC[C@@]21C", "method": "luciferase", "read-out": "EC50", "cells": "SupT1", "setting": "pseudotyped", "value": "6.9 µM"}
{"smiles": "N=C1Sc2ncccc2C2=NCCCN12", "method": "MTT", "read-out": "EC50", "cells": "MT-4", "strain or isolate": "IIIB", "value": "7.9 µM"}
{"smiles": "Fc1cccc(F)c1C1SCc2nc3ccccc3n21", "method": "cytopathic effect", "read-out": "EC50", "cells": "MT-4", "value": "0.389 µM"}
{"smiles": "Nc1ncnc2c1ncn2[C@]1(c2ccccc2)C[C@@H]1COCP(=O)(O)O", "method": "cytopathic effect", "read-out": "EC50", "cells": "MT-4", "value": ">100 µM"}
{"smiles": "Cc1[nH]nc2ccc(CN3C(=O)N(Cc4ccc5n[nH]c(C)c5c4)[C@H](Cc4ccccc4)[C@H](O)[C@H]3CCc3ccccc3)cc12", "method": "cytopathic effect / MTT", "read-out": "EC50", "cells": "MT-2", "strain or isolate": "RF", "value": "<0.018 µM"}
{"smiles": "COC(=O)c1ccc(F)c2c(C(=O)C(=O)N3CCN(C(=O)c4ccccc4)CC3)c[nH]c12", "method": "p24 / ELISA / entry", "read-out": "EC50", "cells": "MT-2", "strain or isolate": "91US005", "value": "0.0004 µM"}
{"smiles": "CC1(C)Oc2ccc3ccc(=O)oc3c2[C@@H](OC(=O)C23CCC(C)(C(=O)O2)C3(C)C)[C@H]1OC(=O)C12CCC(C)(C(=O)O1)C2(C)C", "method": "p24", "read-out": "EC50", "cells": "H9", "strain or isolate": "IIIB", "value": "0.049 µM"}
{"smiles": "O=C1N(Cc2ccccc2)[C@H](CCc2ccccc2)[C@@H](O)[C@@H](Cc2ccccc2)N1Cc1ccccc1", "method": "cytopathic effect / MTT", "read-out": "EC50", "cells": "MT-2", "strain or isolate": "RF", "value": "<2.8 µM"}
{"smiles": "CC(CO)[C@@H](C)C1OC1[C@@H](C)[C@H]1CCC2=C3C(CC[C@@]21C)[C@@]1(C)CC[C@H](O[C@H]2O[C@H](CO)[C@@H](O)[C@H](O)[C@H]2O)C[C@]1(O)[C@@H](O)[C@H]3O", "method": "luciferase", "read-out": "EC50", "cells": "SupT1", "setting": "pseudotyped", "value": "41.6 µM"}
{"smiles": "O=C(O)C(=O)CC(=O)c1cccc(Cc2cccc(F)c2)c1", "method": "p24", "read-out": "EC50", "cells": "MT-4", "strain or isolate": "IIIB", "value": "<2.5 µM"}
{"smiles": "Nc1nc2c(ncn2[C@H]2C[C@]23C[C@@H]3CO)c(=O)[nH]1", "read-out": "EC50", "cells": "CEM + CEM-SS", "strain or isolate": "RF", "value": ">100 µM"}
{"smiles": "COc1ncc(OC)c2c(C(=O)C(=O)N3CCN(C(=O)c4ccccc4)CC3)c[nH]c12", "method": "p24 / ELISA", "read-out": "EC50", "cells": "MT-2", "value": "0.0041 µM"}
{"smiles": "C/C=C/C=C/C(O)=C1\\C(=O)[C@@]2(C)C3/C(=C(O)/C=C/C=C/C)C(=O)[C@@]4(C)C1[C@]1(C)O[C@@]4(O)[C@@]3(C)O[C@@]12O", "method": "luciferase", "read-out": "EC50", "cells": "SupT1", "setting": "pseudotyped", "value": "25.5 µM"}
{"smiles": "O=c1ccn([C@]2(c3ccccc3)C[C@@H]2COCP(=O)(O)O)c(=O)[nH]1", "method": "cytopathic effect", "read-out": "EC50", "cells": "MT-4", "value": ">100 µM"}
{"smiles": "[N-]=[N+]=Nc1ccc2c(c1)SC(=N)N1CCCN=C21", "method": "MTT", "read-out": "EC50", "cells": "MT-4", "strain or isolate": "IIIB", "value": "5.3 µM"}
{"smiles": "Nc1nc(NC2CC2)c2ncn(C3CC=C[C@H]3CO)c2n1", "read-out": "EC50", "cells": "CEM", "strain or isolate": "HE", "value": ">100 µM"}
{"smiles": "CC(C)=CCN1Cc2cc(Cl)cc3[nH]c(=S)n(c23)CC1C", "method": "cytopathic effect", "read-out": "EC50", "cells": "MT-4", "value": "0.003 µM"}
{"smiles": "Nc1nc2c(ncn2[C@H]2C[C@@]23C[C@@H]3CO)c(=O)[nH]1", "read-out": "EC50", "cells": "CEM + CEM-SS", "value": ">100 µM"}
{"smiles": "Cc1nc2ccccc2n1C1[C@H]2CN(CC[C@H](NC(=O)C3CCC3)c3ccccc3)C[C@@H]12", "read-out": "EC90", "cells": "PM1", "strain or isolate": "BAL R5", "value": ">1 µM"}
{"smiles": "Nc1nc2c(ncn2C2C=C[C@@H](CO)C2)c(=O)[nH]1", "read-out": "EC50", "cells": "CEM", "strain or isolate": "HE", "value": "3.5 µM"}
{"smiles": "N=C1Sc2ccccc2C2=NCCCCN12", "method": "MTT", "read-out": "EC50", "cells": "MT-4", "strain or isolate": "IIIB", "value": "3.3 µM"}
{"smiles": "N#Cc1ccc(Nc2nc(Oc3c(Cl)cccc3Cl)ncc2[N+](=O)[O-])cc1", "method": "MTT", "read-out": "EC50", "cells": "MT-4", "strain or isolate": "RES056", "value": ">206 µM"}
{"smiles": "Nc1nc2c(ncn2[C@H]2C[C@@]23C[C@H]3CO)c(=O)[nH]1", "read-out": "EC50", "cells": "CEM + CEM-SS", "strain or isolate": "RF", "value": ">100 µM"}
{"smiles": "C/C=C/C=C/C(O)=C1/C(=O)C2C3/C(=C(O)/C=C/C=C/C)C(=O)[C@@]4(C)C1[C@]1(C)O[C@@]4(O)[C@@]3(C)O[C@]21O", "method": "luciferase", "read-out": "EC50", "cells": "SupT1", "setting": "pseudotyped", "value": "53.3 µM"}
{"smiles": "CCc1cc(NCc2nc3c(Cl)ccc(Cl)c3o2)c(=O)[nH]c1C", "method": "p24", "read-out": "EC95", "cells": "PBL", "strain or isolate": "IIIB", "value": "0.05 µM"}
{"smiles": "CC(C)[C@@H](C)/C=C/[C@@H](C)[C@H]1CCC2=C3[C@@H](O)C4OC45C[C@@H](OC(=O)[C@@H](N)[C@@H](OS(=O)(=O)O)C(C)C)CC[C@]5(C)[C@H]3CC[C@@]21C(=O)O", "method": "luciferase", "read-out": "EC50", "cells": "SupT1", "setting": "pseudotyped", "value": "22.3 µM"}
{"smiles": "Cc1cn([C@@H]2O[C@H](CO[Si](C)(C)C(C)(C)C)[C@@]3(OS(=O)(=O)C=C3N)[C@H]2O[Si](C)(C)C(C)(C)C)c(=O)n(CC(=O)N[C@@H](CCC(=O)O)C(=O)O)c1=O", "method": "syncytia", "read-out": "EC50", "cells": "CEM", "strain or isolate": "IIIB", "value": "10 µM"}
{"smiles": "O=[N+]([O-])c1ccc(Cl)c(C2SCc3nc4ccccc4n32)c1", "method": "cytopathic effect", "read-out": "EC50", "cells": "MT-4", "value": "7.586 µM"}
{"smiles": "Cc1cc(C#N)cc(C)c1Oc1ncc([N+](=O)[O-])c(Nc2ccc(C#N)cc2)n1", "method": "MTT", "read-out": "EC50", "cells": "MT-4", "strain or isolate": "IIIB", "value": "0.062 µM"}
{"smiles": "Clc1cccc(Cl)c1C1SCc2nc3ccccc3n21", "method": "cytopathic effect", "read-out": "EC50", "cells": "MT-4", "value": "0.501 µM"}
{"smiles": "CCc1cc(NCc2nc3c(C)ccc(C)c3o2)c(=O)[nH]c1C", "method": "p24", "read-out": "EC50", "cells": "MT-4", "strain or isolate": "IIIB", "value": "<0.025 µM"}
{"smiles": "Cc1nc2ccccc2n1C1C[C@@H](C)N(CC[C@H](NC(=O)C2CCC2)c2ccccc2)[C@@H](C)C1", "read-out": "EC50", "cells": "PM1", "strain or isolate": "BAL R5", "value": "<0.053 µM"}
{"smiles": "CC1Cn2c(=S)[nH]c3cc(Cl)cc(c32)CN1CC1CCC1", "method": "cytopathic effect", "read-out": "EC50", "cells": "MT-4", "value": "0.013 µM"}
{"smiles": "O=c1ccn([C@]2(c3ccccc3)C[C@@H]2CO)c(=O)[nH]1", "method": "cytopathic effect", "read-out": "EC50", "cells": "MT-4", "value": ">100 µM"}
{"smiles": "Nc1n[nH]c2ccc(CN3C(=O)N(Cc4ccccc4)[C@H](CCc4ccccc4)[C@@H](O)[C@H]3Cc3ccccc3)cc12", "method": "cytopathic effect / MTT", "read-out": "EC50", "cells": "MT-2", "strain or isolate": "RF", "value": "<0.126 µM"}

6 of the rows above, restated:

smiles | method | read-out | cells | changes | strain or isolate | setting | value
CC1Cn2c(=S)[nH]c3cc(Cl)cc(c32)CN1CC1CCC1 | cytopathic effect | EC50 | MT-4 | - | - | - | 0.013 µM
Nc1ccn([C@H]2CC[C@@H](CO)O2)c(=O)n1 | plaque count | EC50 | - | RT-D67N K70R T215F K219Q | HIVRTMC (RT D67N K70R T215F K219Q) | - | 0.14 µM
N=C1Sc2cc(-c3cc4ccccc4o3)ccc2C2=NCCCN12 | MTT | EC50 | MT-4 | - | IIIB | - | 1.4 µM
Cc1cc(C)c(Oc2ncc([N+](=O)[O-])c(Nc3ccc(C#N)cc3)n2)c(C)c1 | MTT | EC50 | MT-4 | - | IIIB | - | 0.042 µM
Cc1cn([C@@H]2O[C@H](CO[Si](C)(C)C(C)(C)C)[C@@]3(OS(=O)(=O)C=C3N)[C@H]2O[Si](C)(C)C(C)(C)C)c(=O)n(CC(=O)N[C@@H](CCC(=O)O)C(=O)O)c1=O | syncytia | EC50 | CEM | - | IIIB | - | 10 µM
CC(C)C(C)/C=C/[C@@H](C)[C@H]1CCC2C3C[C@@H](O)[C@@]4(O)C[C@@H](O)CC[C@]4(C)C3CC[C@@]21C | luciferase | EC50 | SupT1 | - | - | pseudotyped | 9.3 µM